In patent US20260042827A1, “ANTI-WT1 ANTIGEN-BINDING PROTEINS AND USES THEREOF” (UNIVERSITY HEALTH NETWORK, priority 2022, published 2026):

Target: HLA-DP4 (human), P20036
Assay: competition peptide binding on T2/DP4 cells vs Oxy271-287
Settings: chains peptide; modification not given

Binder: FNNFTVSFWLRVPKVSASHLE [tetanus toxin947-967 (TT947-967)]
- IC50: 4.4 µM
